Measured values from several laboratories, pooled; numbers as filed in NIAID ChemDB.

All rows: whole-cell or culture tests; species: Rhinovirus; endpoint: EC50

Conditions beyond the fields shown may differ between rows. ECn is the concentration giving n% inhibition of infection, replication or growth.

| compound | cells | method | strain | result |
|---|---|---|---|---|
| CSc1ccc(Cn2cnc3c(N(C)C)nc(C(F)(F)F)nc32)cc1 | M-HELA | plaque count | TYPE 1B | 0.07 µM |
| CCO/N=C/c1ccc(OCCC2CCN(c3ccc(Cl)nn3)CC2)cc1 | KB | neutral red | Baylor 3 (LDL receptor group 47) | 0.173 µM |
| CSc1nsc(-c2ccc(OCCOc3ccccc3)cc2)c1C#N | HELA-OHIO | cytopathic effect | Serotype 59 (group B) | >20 µM |
| Cc1cc(CCCOc2c(C)cc(-c3noc(C(F)(F)F)n3)cc2C)on1 | OHIO HELA-I | cytopathic effect / visual reading | Isolate 12 | 0.03 µg/mL |
| CN(C)c1nc(C(F)(F)F)nc2c1ncn2Cc1ccccc1 | M-HELA | plaque count | Serotype 31 | >8 µM |
| CN(c1ccccc1)c1nc(C(F)(F)F)nc2c1ncn2Cc1ccccc1 | M-HELA | plaque count | Serotype 1B | 2.3 µM |
| CSc1nsc(-c2ccc(OCCc3ccccc3)cc2)c1C#N | HELA-OHIO | cytopathic effect | Serotype 2 (group B) | 3.9 µM |
| CN(C)c1nc(C(F)(F)F)nc2c1ncn2Cc1ccc(F)cc1 | M-HELA | plaque count | TYPE 1B | 0.05 µM |
| CSc1nsc(-c2ccc(OCc3ccccc3)cc2)c1C#N | HELA-OHIO | cytopathic effect | Serotype 86 (group A) | 2 µM |
| Cc1cc(CCCCCOc2c(Cl)cc(C3=NCCO3)cc2Cl)on1 | HeLa | plaque count | TYPE 87 | 2.2 µg/mL |
| CCOC(=O)c1ccc(OCCCOc2ccc(-c3snc(SC)c3C#N)cc2)cc1 | HELA-OHIO | cytopathic effect | Serotype 89 (group B) | >2 µM |
| CSc1nsc(-c2ccc(OC(C)(C)C)cc2)c1C#N | HELA-OHIO | cytopathic effect | Serotype 85 (group B) | 1 µM |
| CSc1nsc(-c2ccc(OCCCOc3ccc(C#N)cc3)cc2)c1C#N | HELA-OHIO | cytopathic effect | Serotype 15 (group B) | >2 µM |
| Fc1cccc(Cn2cnc3c(Nc4cccc(F)c4)nc(C(F)(F)F)nc32)c1 | M-HELA | plaque count | Serotype 32 | 5.7 µM |
| COc1ccc(Cn2cnc3c(N(C)C)nc(C(F)(F)F)nc32)cc1C | M-HELA | plaque count | Serotype 30 | >8 µM |
| CCOC(=O)c1ccc(OCCOc2ccc(-c3snc(SC)c3C#N)cc2)cc1 | HELA-OHIO | cytopathic effect | Serotype 70 (group A) | >2 µM |
| CN(C)c1nc(C(F)(F)F)nc2c1ncn2Cc1cccc(F)c1 | M-HELA | plaque count | Serotype 3 | >8 µM |
| CSc1nsc(-c2ccc(OS(=O)(=O)c3ccc(C)cc3)cc2)c1C#N | HELA-OHIO | cytopathic effect | Serotype 70 (group A) | >25 µM |
| CN(C)c1nc(C(F)(F)F)nc2c1ncn2Cc1ccc(Cl)cc1Cl | M-HELA | plaque count | Serotype 3 | >8 µM |
| CSc1nsc(-c2ccc(OCCCOc3ccccc3)cc2)c1C#N | HELA-OHIO | cytopathic effect | Serotype 63 (group B) | >20 µM |

For reference, 3 entries again:

compound,cells,method,strain,result
CN(c1ccccc1)c1nc(C(F)(F)F)nc2c1ncn2Cc1ccccc1,M-HELA,plaque count,Serotype 1B,2.3 µM
CSc1ccc(Cn2cnc3c(N(C)C)nc(C(F)(F)F)nc32)cc1,M-HELA,plaque count,TYPE 1B,0.07 µM
CSc1nsc(-c2ccc(OCCCOc3ccccc3)cc2)c1C#N,HELA-OHIO,cytopathic effect,Serotype 63 (group B),>20 µM